Results of unrelated studies side by side (data: NIAID ChemDB).

All rows: cytotoxicity tests; cell line: HepG2.2.15; read-out: CC50

Conditions beyond the fields shown may differ between rows. CCn: concentration that lowers growth or viability of the cells by n%.

smiles | result
Nc1ccn([C@H]2CC[C@@H](CO)O2)c(=O)n1 | 493 µM
Nc1ncnc2c1ncn2[C@H]1C[C@H](O)[C@@H](COP([O-])(=S)O[C@H]2C[C@H](n3ccc(=O)[nH]c3=O)O[C@@H]2CO)O1 | >300 µM
CCNc1nc(=O)c2ncn([C@@H]3O[C@H](CO)[C@@H](O)[C@H]3O)c2c(=O)[nH]1 | >100 µM
Nc1ncnc2c1ncn2[C@H]1CC[C@@H](CO)O1 | 154 µM
CO[C@@H]1[C@H](OP(O)(=S)OC[C@H]2O[C@@H](n3cnc4c(N)ncnc43)C[C@@H]2O)[C@@H](CO)O[C@H]1n1ccc(=O)[nH]c1=O | >300 µM
Nc1nc2c(ncn2[C@@H]2C[C@H](CO)[C@@H](O)C2)c(=O)[nH]1 | 12 µM
C[C@H]1O[C@@H](O[C@H]2CC[C@@]3(C)[C@@H](CC[C@]4(C)[C@@H]3C=C[C@]35OC[C@@]6(CCC(C)(C)C[C@H]63)[C@@H](O)C[C@]54C)[C@]2(C)CO)[C@H](O)[C@@H](O[C@@H]2O[C@H](CO)[C@@H](O)[C@H](O)[C@H]2O)[C@H]1O | >40 µg/mL
Nc1nc(=O)n([C@@H]2CC[C@H](CO)O2)cc1F | 438 µM
Nc1ncnc2c1ncn2[C@@H]1O[C@H](CO)[C@@H](O)[C@@H]1O | 191 µM
Nc1nc2c(ncn2CCC(CO)CO)c(=O)[nH]1 | 89 µM
CCn1cc(C(=O)O)c(=O)c2ccc(C)nc21 | 196 µM
CC(=O)Oc1ccc(-c2cc(=O)c3c(OC(C)=O)c(-c4cc(-c5cc(=O)c6c(OC(C)=O)cc(OC(C)=O)cc6o5)ccc4OC(C)=O)c(OC(C)=O)cc3o2)cc1 | 636 µM
C[C@@H]1O[C@@H](O[C@H]2[C@H](O)[C@@H](O)[C@H](O[C@H]3CC[C@]4(C)[C@H]5C=C[C@]67OC[C@@]8(CCC(C)(C)C[C@H]86)[C@@H](O)C[C@@]7(C)[C@]5(C)CC[C@H]4C3(C)C)O[C@@H]2CO[C@@H]2O[C@H](CO)[C@@H](O)[C@H](O)[C@H]2O)[C@H](O)[C@H](O)[C@H]1O | >40 µg/mL
Cc1cn([C@@H]2O[C@H](CO)[C@@H](O)[C@@H]2F)c(=O)[nH]c1=O | 205 µM
CC(=O)[C@]1(O)CC[C@@]2(O)[C@]1(C)[C@H](OC(=O)/C=C(\C)C(C)C)CC1[C@@]3(C)CC[C@H](OC(=O)CCCC(=O)O)CC3=CC[C@]12O | >310 µM
Nc1nc(=O)c2ncn(CCOCP(=O)(O)O)c2c(=O)[nH]1 | >100 µM
CC(=O)Oc1ccc([C@@H]2CC(=O)c3c(cc(OC(C)=O)c(-c4c(OC(C)=O)cc(OC(C)=O)c5c4O[C@H](c4ccc(OC(C)=O)cc4)CC5=O)c3OC(C)=O)O2)cc1 | 20 µM
CCc1cn([C@@H]2O[C@H](CO)[C@@H](O)[C@@H]2F)c(=O)[nH]c1=O | 228 µM
CNc1nc(=O)c2ncn([C@@H]3O[C@H](CO)[C@@H](O)[C@H]3O)c2c(=O)[nH]1 | >100 µM

For reference, 2 entries again:

| smiles | result |
|---|---|
| Nc1nc2c(ncn2[C@@H]2C[C@H](CO)[C@@H](O)C2)c(=O)[nH]1 | 12 µM |
| C[C@@H]1O[C@@H](O[C@H]2[C@H](O)[C@@H](O)[C@H](O[C@H]3CC[C@]4(C)[C@H]5C=C[C@]67OC[C@@]8(CCC(C)(C)C[C@H]86)[C@@H](O)C[C@@]7(C)[C@]5(C)CC[C@H]4C3(C)C)O[C@@H]2CO[C@@H]2O[C@H](CO)[C@@H](O)[C@H](O)[C@H]2O)[C@H](O)[C@H](O)[C@H]1O | >40 µg/mL |